Patent publication US7741348B2, “Bisheterocycle tandem compounds useful as antiviral agents, the uses thereof and the compositions comprising such compounds” (Shanghai Institute of Materia Medica, Chinese Academy of …, priority 2005, dated 2010)

Columns and labels:
Type in all cases: cell-based
hepatitis B virus (HBV) [1] = assay: HBeAg secretion in HepG2.2.15 culture supernatant (ELISA); details: selection coefficient, in brackets after the IC50; ratio CC50 / IC50
Description: (§1) Hepatitis B virus (HBV) transgenic human hepatoma carcinoma cell, HepG2.2.15 cell line, can secrete hepatitis B virus particles (containing antigen and DNA) into supernatant when being cultured.
(§2) Under action of antiviral drugs, the contents of HBsAg, HBeAg and viral DNA secreted from cells into the supernatant were detected and are compared with the contents of control groups without drugs, so that the antiviral activity of the compounds of the present invention can be measured as well as the cytotoxic effect of compounds of the present invention. The value concentration of the compounds of the present invention which caused 50% of cells dead and was measured with MTT method was CC50; and the value concentration of the compounds of the present invention which inhibited the secretion of HBsAg and HBeAg detected by ELISA method and inhibited 50% of viral DNA replication detected by fluorescent quantification PCR method was IC50.
(§3) HepG2.2.15 cells were inoculated on a 96-well plate, and the compounds of the present invention were added next day. The medium and the compound solutions of the same concentration were renewed periodically. The culture supernatants were collected on the eighth day to be detected. MTT was added to the cells on the 96-well plate, and MTT dissolving liquid was added after 4 hours to be reacted overnight. OD570 was measured next day on microplate reader. And the cytotoxicity of the compounds of the present invention to the HepG2.2.15 cells, the effect of the compounds of the present invention on the growth of the cells, and the concentration of the compound of the present invention (CC50) causing 50% of the cells dead were estimated according to the OD values.
(§4) HBsAg and HBeAg were detected with assaying kits (purchased from Sino-American biotechnological company). Samples were added to the coated strip plate, and the same amount of enzyme labeled conjugate was added, after reacting under 37° C. for 1 hour, the plate was washed 5 times. Colorant solutions A and B were added, and the reaction was stopped after 15 minutes, and OD450/630 was measured. The half inhibition rate IC50 of the sample for the HBV antigen was calculated according to the OD values.

hepatitis B virus (HBV) [2] = assay: HBsAg secretion in HepG2.2.15 culture supernatant (ELISA); details: selection coefficient, in brackets after the IC50; ratio CC50 / IC50
Description: as §1, §2, §3, §4

hepatitis B virus (HBV) [3] = assay: HBV-DNA replication in HepG2.2.15 culture supernatant (fluorescent quantification PCR); details: selection coefficient, in brackets after the IC50; ratio CC50 / IC50
Description: as §1, §2, §3
A suitable amount of culture supernatant was added into a same volume of virus extract solution, and was boiled after mixed uniformly, then centrifuged at 10000 rpm for 5 min under room temperature. A suitable amount of supernatant was collected for PCR amplification. Five HBV-DNA standard samples were used to set a standard curve. According to the obtained viral DNA replication value, the inhibition rates of HBV-DNA replication of the compound of the present invention at different concentrations were calculated, and then the half inhibition rates of the compounds were calculated to obtain IC50. For the samples that can not be calculated for IC50 value, they can be represented by ICX and given the corresponding concentration values.

herpes virus II (HSV-II) = assay: Anti herpes virus II activity, cytopathic effect in Vero cells; details: SI = TC50/IC50
Description: 3. Screening of the compounds for the anti-herpes virus I and II activity: Vero (African green monkey kidney) cells were used as virus host to test the inhibition effect of the compounds of the present invention on the cytopathic effect of the Vero cells caused by Herpes virus I and II.

Row | SMILES | HBeAg secreation SI (hepatitis B virus (HBV) [1]) | HBsAg secreation SI (hepatitis B virus (HBV) [2]) | DNA replication SI (hepatitis B virus (HBV) [3]) | Anti herpes virus II HSV-II (SI) (herpes virus II (HSV-II))
1 | CCOC(=O)c1nc(-c2nccs2)[nH]c1CC(C)C [Wang279-1] | 7.7 | 5.5 | – | –
2 | CCOC(=O)c1nc(-c2ncc(C)s2)sc1CC(C)C [Compound C310] | – | – | > 571 | –
3 | CCOC(=O)c1nc(-c2nc3cc(OC)ccc3s2)sc1CC(C)C [Compound C376] | – | – | 6 | –
4 | COC(=O)c1nc(-c2csc([C@@H](NC(=O)c3cccc(F)c3)C(C)C)n2)oc1C [Wang417.46-P] | – | – | – | 1.86
5 | COC(=O)c1nc(-c2nccs2)sc1Cc1ccccc1 [Wang316] | 2.5 | 5.2 | – | –
6 | CC(C)Cc1cnc(-c2nccs2)o1 [Compound C208] | – | – | > 2.8 | –
7 | CCOC(=O)c1nc(-c2cccs2)[nH]c1C1CC1 [Compound C262] | – | – | 8 | –
8 | c1ccc(-c2cnc(-c3cccs3)o2)cc1 [Compound C227] | – | – | > 71 | –
9 | CCOC(=O)c1nc(-c2cc3ccccc3s2)[nH]c1CC(C)C [Compound C328] | – | – | > 39.14 | –
10 | CCCc1[nH]c(-c2cccs2)nc1C(=O)OCC [Wang264] | 1.3 | 3 | – | –
11 | CCCCc1[nH]c(-c2cccs2)nc1C(=O)OCC [Wang278] | 6.4 | 2.27 | 32.1 | –
12 | CCOC(=O)c1nc(-c2cccs2)sc1C1CCCCC1 [Compound C321-2] | – | – | > 16.9 | –
13 | CCOC(=O)c1nc(-c2nccs2)[nH]c1C1CCCCC1 [Compound C305-2] | – | – | > 24.4 | –
14 | CCCCc1sc(-c2nccs2)nc1C(=O)O [Wang268] | 2 | 6.9 | – | –
15 | CCOC(=O)c1nc(-c2cscn2)sc1CC(C)C [Compound C296-3] | – | – | 826 | –
16 | CCOC(=O)c1nc(-c2cc3ccccc3s2)sc1CC(C)C [Compound C345] | – | – | > 86.7 | –
17 | CCOC(=O)c1nc(-c2nccs2)[nH]c1C1CCC1 [Compound C277] | – | – | > 32 | –
18 | COC(=O)c1nc(-c2csc([C@@H](NC(=O)c3cccs3)C(C)C)n2)oc1C [Wang405.49] | 3.32 | 2.43 | 2.02 | –
19 | CCOC(=O)c1nc(-c2nccs2)[nH]c1C1CC1 [Compound C263-1] | – | – | > 27 | –
20 | COC(=O)c1nc(-c2csc([C@@H](NC(=O)c3ccccc3F)C(C)C)n2)oc1C [Wang417.46-J] | – | 5.3 | – | –
21 | CCOC(=O)c1nc(-c2nc(CC)cs2)sc1CC(C)C [Compound C324-2] | – | – | > 571 | –
22 | CCCCc1sc(-c2cccs2)nc1C(=O)OCC [Compound C295-1] | – | – | 4.3 | –
23 | Clc1nc(-c2cccs2)[nH]c1-c1ccccc1 [Wang260] | 3.1 | 3.8 | – | –
24 | CCOC(=O)c1nc(-c2ccc(C)s2)oc1CC(C)C [Compound C293] | – | – | 0.6 | –
25 | CCOC(=O)c1nc(-c2cccs2)oc1C1CCCCC1 [Compound C305-1] | – | – | > 38 | –

Row | SMILES | HBeAg secreation SI (hepatitis B virus (HBV) [1]) | HBsAg secreation SI (hepatitis B virus (HBV) [2]) | DNA replication SI (hepatitis B virus (HBV) [3]) | Anti herpes virus II HSV-II (SI) (herpes virus II (HSV-II))
26 | CCOc1cnc(-c2oc(-c3cccs3)nc2C(=O)c2ccccc2)o1 [Compound C352] | – | – | > 4 | –
27 | COC(=O)c1nc(-c2csc([C@@H](NC(=O)COCc3ccccc3)C(C)C)n2)oc1C [Wang 443.52] | – | – | – | 1.86
28 | COC(=O)c1nc(-c2ncco2)sc1-c1ccc(F)cc1Cl [Wang338] | 9 | 2.58 | 32.8 | –
29 | Clc1nc(-c2nccs2)[nH]c1-c1ccccc1 [Wang261] | 3.3 | 1.3 | – | –
30 | CCOC(=O)c1nc(-c2nccs2)[nH]c1C1CCCC1 [Compound C291] | – | – | > 18.2 | –
31 | CC(C)Cc1sc(-c2nccs2)nc1C(=O)O [Wang268-1] | 4.3 | 4.9 | 2.9 | –
32 | CCCc1[nH]c(-c2nccs2)nc1C(=O)OCC [Wang265] | 14.1 | 4.2 | – | –
33 | CCCCc1oc(-c2ccc(CCC)s2)nc1C(=O)OCC [Compound C321-1] | – | – | 13.65 | –
34 | CCOC(=O)c1nc(-c2cccs2)[nH]c1CC(C)C [Wang278-1] | 4.8 | 2.6 | – | –
35 | CCCCc1sc(-c2nccs2)nc1C(=O)OC [Wang282] | 6.9 | 6.75 | 20.5 | –
36 | COC(=O)c1nc(-c2csc([C@@H](NC(=O)c3csc([C@@H](NC(=O)OC(C)(C)C)C(C)C)n3)C(C)C)n2)oc1C [Wang 577.72] | – | – | – | 1.81
37 | COC(=O)c1coc([C@H](C)NC(=O)c2nc(-c3csc([C@@H](NC(=O)C4CCCC4)C(C)C)n3)oc2C)n1 [Wang529.61-1] | 2.76 | 2.21 | – | –
38 | CCOC(=O)c1nc(-c2nccs2)oc1C1CCCCC1 [Compound C306] | – | – | > 125 | –
39 | CCOC(=O)c1nc(-c2ccc(CC)s2)oc1CC(C)C [Compound C307] | – | – | 3.6 | –
40 | CCOC(=O)c1nc(-c2cccs2)[nH]c1-c1ccccc1 [Wang298] | 2.7 | 4 | – | –
41 | c1ccc(-c2cnc(-c3cccs3)[nH]2)cc1 [Compound C226] | – | – | 23.1 | –
42 | CCOC(=O)c1nc(-c2ccc(C)s2)[nH]c1CC(C)C [Compound C292] | – | – | 25.9 | –
43 | O=C(O)c1nc(-c2nccs2)sc1Cc1ccccc1 [Wang302] | 2.3 | – | 3.1 | –
44 | COC(=O)c1coc([C@H](C)NC(=O)c2nc(-c3csc([C@@H](NC(=O)C4CC4)C(C)C)n3)oc2C)n1 [Wang 501.56-1] | – | – | – | 2.41
45 | CCOC(=O)c1nc(-c2cc3ccccc3[nH]2)[nH]c1CC(C)C [Compound C311-2] | – | – | 50 | –
46 | CCCCc1oc(-c2cccs2)nc1C(=O)OCC [Compound C279-2] | – | – | 1.38 | –
47 | CCOC(=O)c1nc(-c2cccs2)[nH]c1C1CCCCC1 [Compound C304] | – | – | > 22.2 | –
48 | COC(=O)c1nc(-c2nccs2)sc1CC(C)C [Wang282-1] | > 15.4 | > 4.93 | > 138.8 | –
49 | c1ccc(-c2cnc(-c3cccs3)s2)cc1 [Compound C243] | – | – | 206.1 | –
